# Test results reported in PubChem BioAssay AID504884 (Broad Institute, 2011).
# The list shows a part of the results, in another mix than the full data. Activity calls are given as the source filed them. Cut-off read from the data, not from the text of the source: active = activity above about 50% (passing the limit was not always enough); inconclusive = no clear call, values can overlap the other calls.
# Test system: DNA topoisomerase I (Yersinia pestis CO92)
# Test: Yersinia pestis topoisomerase I inhibitors, primary screen, biochemical, cleavage product accumulation, plate reader, single point (AID 504884)
# Conditions: Y. pestis Topo-I cleavage product accumulation, at 10 µM, active compounds read high
row,SMILES,activity
1,O=C(NCC1(N2CCOCC2)CCCCC1)c1cc(Br)ccc1Cl,inactive: -4.75%
2,COc1cc(C(=O)NCC2(N3CCOCC3)CCCCC2)cc(OC)c1C,inactive: -0.579%
3,COc1ccc(C(=O)NCC2(N3CCOCC3)CCCCC2)cc1OC,inactive: 26.8%
4,N/C(=N\O)c1c(N)no[n+]1[O-],inactive: -5.63%
5,CCOC(=O)N1CCC(Nc2ccc(C)cc2)CC1,inactive: 9.52%
6,O=C(OC1CN2CCC1CC2)C1c2ccccc2C=Cc2ccccc21 (stereo not given),inactive: 2.2%
7,CC(C)(C)OC(=O)N1CCC(N(C(=O)c2ccccc2)c2ccc(Cl)cc2)CC1,inactive: 12.1%
8,N#Cc1ccc(C(=O)NCC2(N3CCCCC3)CCCCC2)cc1,inactive: -1.02%
9,Cc1cc(N(CCCl)CCCl)ccc1C=O,inactive: 4.34%
10,CCCN1CCC(Nc2cc(OC)cc(OC)c2)CC1,inactive: 2.91%
11,c1ccc(CN2CCC(Nc3ccccc3)CC2)cc1,inactive: 0.125%
12,CN(C)C1(CNC(=O)c2cccc(C#N)c2)CCCCC1,inactive: -1.77%
13,COc1cc(OC)cc(C(=O)NCC2(N3CCCCC3)CCCCC2)c1,inactive: 3.96%
14,CC(=O)N(c1ccccc1)C1CCNCC1,inactive: 6.78%
15,Cc1ccc(NC2(C#N)CCN(Cc3ccccc3)CC2)cc1,inactive: -4.39%
16,Fc1ccccc1NC1CCN(Cc2ccccc2)CC1,inactive: 6.51%
17,Cc1ccc(C(=O)NCC2(N3CCCCC3)CCCCC2)o1,inactive: 1.56%
18,CCN1CCC(Nc2cccc(F)c2)CC1,inactive: -0.309%
19,Cc1ccccc1NC1(C#N)CCN(Cc2ccccc2)CC1,inactive: 3.45%
20,CN(C)c1ccc(C(=O)NCC2(N3CCCCC3)CCCCC2)cc1,inactive: 15%
21,Cn1c(=O)[nH]cc(N(CCCl)CCCl)c1=O,inactive: 3.03%
22,O=C(NCC1(N2CCCCC2)CCCCC1)c1ccco1,inactive: -0.193%
23,CN1CCC(Nc2ccc(F)c(Cl)c2)CC1,inactive: -5.15%
24,CCOc1ncccc1C(=O)NCC1(N2CCOCC2)CCCCC1,inactive: 17.5%
25,CCCOc1ccc(C(=O)NCC2(N(C)C)CCCCC2)cc1,inactive: 0.655%

row,SMILES,activity
1,O=C(O)C1(Nc2ccccc2)CCN(Cc2ccccc2)CC1,inactive: 4.69%
2,CC(C)(C)OC(=O)N1CCC(Nc2ccccc2)CC1,inactive: 2.53%
3,CCC(CO)(C(=O)OC1CN2CCC1CC2)c1ccccc1 (stereo not given),inactive: -2.46%
4,COc1cccc(C(=O)N(c2cc(C)cc(C)c2)C2CCN(C(=O)OC(C)(C)C)CC2)c1,inactive: 1.15%
5,COc1cc(OC)cc(C(=O)NCC2(N3CCOCC3)CCCCC2)c1,inactive: 13.3%
6,CN1CCC(Nc2ccc(Cl)cc2)CC1,inactive: -1.22%
7,O=C(NCC1(N2CCCCC2)CCCCC1)c1cccs1,inactive: 3.16%
8,O=C(NCC1(N2CCCCC2)CCCCC1)c1ccc(=O)[nH]c1,inactive: -3.46%
9,CC(C)(C)OC(=O)N1CCC(N(C(=O)c2ccccc2)c2ccc(F)cc2)CC1,inactive: 27.3%
10,COc1ccc(C(=O)NCC2(N3CCCCC3)CCCCC2)c(OC)c1OC,inactive: 0.901%
11,COc1ccc(C(=O)NCC2(N3CCCCC3)CCCCC2)cc1,inactive: 6.58%
12,Cc1cccc(NC2(C#N)CCN(Cc3ccccc3)CC2)c1,inactive: 12.5%
13,CSc1ccccc1C(=O)NCC1(N2CCCCC2)CCCCC1,inactive: 22%
14,O=C(NCC1(N2CCOCC2)CCCCC1)c1cc2ccccc2o1,inactive: -1.67%
15,Cc1cc(C)cc(N(C(=O)c2ccccc2)C2CCN(C(=O)OC(C)(C)C)CC2)c1,inactive: 38.6%
16,O=C(NCC1(N2CCCCC2)CCCCC1)c1ccc(Cl)nc1,inactive: 2.41%
17,CCOC(=O)N1CCC(Nc2ccc(OC)cc2)CC1,inactive: -8.85%
18,COc1ccc(Cl)cc1C(=O)NCC1(N2CCOCC2)CCCCC1,inactive: 18.4%
19,N#CC1(Nc2ccccc2)CCN(Cc2ccccc2)CC1,inactive: 4.19%
20,O=C(NCC1(N2CCCCC2)CCCCC1)c1ccc(Cl)s1,inactive: 1.52%
21,O=C(OC1CN2CCC1CC2)C1c2ccccc2Oc2ccccc21 (stereo not given),inactive: 10.1%
22,CCOc1ccc(C)cc1CN(CCCl)CCCl,inactive: -4.66%
23,O=C1CCN(Cc2ccccc2)CC1,inactive: 12.1%
24,CCOC(=O)N1CCC(Nc2ccc(F)cc2)CC1,inactive: 2.24%
25,COc1ccc(NC2CCN(CCc3ccccc3)CC2)c(OC)c1,inactive: 10%

row,SMILES,activity
1,CCCCOc1ccc(C(=O)NCC2(N3CCOCC3)CCCCC2)cc1,inactive: 4.54%
2,O=P1(N(CCCl)CCCl)SCCCS1,inactive: 3.05%
3,O=C(NCC1(N2CCCCC2)CCCCC1)c1ccc(F)cc1,inactive: -5.83%
4,CCOC(=O)N1CCC(Nc2cccc(C)c2)CC1,inactive: -3.03%
5,COc1cc(C(=O)NCC2(N(C)C)CCCCC2)ccc1OC(F)F,inactive: -4.89%
6,O=C(NCC1(N2CCCCC2)CCCCC1)c1ccc(OC(F)F)cc1,inactive: 6.09%
7,CSc1ccc(C(=O)NCC2(N3CCOCC3)CCCCC2)cc1,inactive: 6.94%
8,O=C(NCC1(N2CCCCC2)CCCCC1)c1cccc([N+](=O)[O-])c1,inactive: 0.23%
9,N#CC1(Nc2ccccc2)CCN(CCc2ccccc2)CC1,inactive: 4.8%
10,CCN1CCC(Nc2ccc(Cl)cc2)CC1,inactive: 0.425%
11,O=C(NCC1(N2CCCCC2)CCCCC1)c1cccc(C(F)(F)F)c1,inactive: -6.53%
12,CC(C)c1ccc(C(=O)NCC2(N3CCOCC3)CCCCC2)cc1,inactive: 14.9%
13,COc1ccc(NC2CCN(C(=O)OC(C)(C)C)CC2)cc1,inactive: -2.36%
14,CN1CCN(CCOC(=O)C(O)(c2ccccc2)c2ccccc2)CC1,inactive: -7.51%
15,O=C(NCC1(N2CCOCC2)CCCCC1)c1cc(=O)[nH]c2ccccc12,inactive: 7.91%
16,COc1cc(C(=O)NCC2(N3CCCCC3)CCCCC2)ccc1OC(F)F,inactive: -12.6%
17,CN(C)c1cccc(C(=O)NCC2(N3CCCCC3)CCCCC2)c1,inactive: 1.07%
18,COc1ccc(CN(CCCl)CCCl)cc1Cl,inactive: 2.76%
19,CC(C)c1ccc(NC2CCN(C(=O)OC(C)(C)C)CC2)cc1,inactive: 7.44%
20,O=C(NCC1(N2CCOCC2)CCCCC1)c1cc(F)c(F)cc1Cl,inactive: -2.47%
21,COc1cc(OC)c(C(=O)NCC2(N(C)C)CCCCC2)cc1OC,inactive: 4.32%
22,CN1CCC(Nc2cccc(F)c2)CC1,inactive: 0.188%
23,O=C(NCC1(N2CCCCC2)CCCCC1)c1cncc(Br)c1,inactive: -10.3%
24,CCCOc1ccc(C(=O)NCC2(N(C)C)CCCCC2)cc1OC,inactive: -0.125%
25,Cc1ccc(C(=O)NCC2(N(C)C)CCCCC2)o1,inactive: -0.314%
